DMS reactivity of the HIV-1 5' RNA in monomer and dimer

Reference: Ye et al. 2022, doi:10.1038/s41594-022-00746-2.

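Randomly mutated transcripts starting with one, two or three G (1G, 2G, 3G), capped or uncapped, were folded for 30 min at 37 °C. High salt was 300 mM KCl and 5 mM MgCl2, low salt 40 mM KCl and 0.1 mM MgCl2; monomer and dimer were parted on a native gel. Gel slices were treated with 170 mM dimethyl sulfate for 15 min at 37 °C and read by mutational profiling against an ethanol control.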

RNA: 5' end of the HIV-1 NL4-3 genome, made in vitro. Positions 1-437 read:
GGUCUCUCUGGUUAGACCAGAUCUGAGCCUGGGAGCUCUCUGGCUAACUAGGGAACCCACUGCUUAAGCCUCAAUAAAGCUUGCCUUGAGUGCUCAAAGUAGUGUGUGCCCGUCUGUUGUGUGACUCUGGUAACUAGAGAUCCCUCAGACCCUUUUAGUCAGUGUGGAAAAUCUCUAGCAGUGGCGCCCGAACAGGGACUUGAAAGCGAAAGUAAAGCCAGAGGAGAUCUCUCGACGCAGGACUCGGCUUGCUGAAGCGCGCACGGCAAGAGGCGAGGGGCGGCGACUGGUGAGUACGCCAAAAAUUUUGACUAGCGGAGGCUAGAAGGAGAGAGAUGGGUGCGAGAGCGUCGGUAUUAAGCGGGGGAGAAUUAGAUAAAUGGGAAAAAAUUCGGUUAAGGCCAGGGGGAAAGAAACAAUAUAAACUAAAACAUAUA

Values are winsor-normalised DMS reactivities of A and C; higher means more reactive, usually unpaired. One numbering serves 1G, 2G and 3G. A position is written with its base.

{"position": "A21", "3G uncapped high-salt dimer": 0.51, "1G capped low-salt monomer": 0.56, "2G capped low-salt monomer": 0.52}
{"position": "A47", "3G uncapped high-salt dimer": 0.13, "1G capped low-salt monomer": 0.20, "2G capped low-salt monomer": 0.14}
{"position": "A54", "3G uncapped high-salt dimer": 0.14, "1G capped low-salt monomer": 0.20, "2G capped low-salt monomer": 0.14}
{"position": "A59", "3G uncapped high-salt dimer": 0.68, "1G capped low-salt monomer": 0.46, "2G capped low-salt monomer": 0.50}
{"position": "A66", "3G uncapped high-salt dimer": 0.81, "1G capped low-salt monomer": 0.89, "2G capped low-salt monomer": 1.01}
{"position": "A73", "3G uncapped high-salt dimer": 0.03, "1G capped low-salt monomer": 0.04, "2G capped low-salt monomer": 0.03}
{"position": "A78", "3G uncapped high-salt dimer": 0.74, "1G capped low-salt monomer": 0.73, "2G capped low-salt monomer": 0.73}
{"position": "C80", "3G uncapped high-salt dimer": 0.24, "1G capped low-salt monomer": 0.36, "2G capped low-salt monomer": 0.39}
{"position": "A89", "3G uncapped high-salt dimer": 0.65, "1G capped low-salt monomer": 0.54, "2G capped low-salt monomer": 0.49}
{"position": "C93", "3G uncapped high-salt dimer": 0.09, "1G capped low-salt monomer": 0.04, "2G capped low-salt monomer": 0.03}
{"position": "A133", "3G uncapped high-salt dimer": 1.28, "1G capped low-salt monomer": 1.51, "2G capped low-salt monomer": 1.41}
{"position": "C151", "3G uncapped high-salt dimer": 0.80, "1G capped low-salt monomer": 0.77, "2G capped low-salt monomer": 0.80}
{"position": "C173", "3G uncapped high-salt dimer": 0.03, "1G capped low-salt monomer": 0.04, "2G capped low-salt monomer": 0.03}
{"position": "C185", "3G uncapped high-salt dimer": 0.50, "1G capped low-salt monomer": 0.42, "2G capped low-salt monomer": 0.44}
{"position": "A194", "3G uncapped high-salt dimer": 1.01, "1G capped low-salt monomer": 1.02, "2G capped low-salt monomer": 1.08}
{"position": "A205", "3G uncapped high-salt dimer": 0.26, "1G capped low-salt monomer": 0.32, "2G capped low-salt monomer": 0.28}
{"position": "A214", "3G uncapped high-salt dimer": 0.28, "1G capped low-salt monomer": 0.26, "2G capped low-salt monomer": 0.24}
{"position": "C218", "3G uncapped high-salt dimer": 0.04, "1G capped low-salt monomer": 0.04, "2G capped low-salt monomer": 0.03}
{"position": "A222", "3G uncapped high-salt dimer": 0.23, "1G capped low-salt monomer": 0.26, "2G capped low-salt monomer": 0.27}
{"position": "A311", "3G uncapped high-salt dimer": 1.18, "1G capped low-salt monomer": 1.19, "2G capped low-salt monomer": 1.06}
{"position": "A345", "3G uncapped high-salt dimer": 1.21, "1G capped low-salt monomer": 1.20, "2G capped low-salt monomer": 1.14}
{"position": "A378", "3G uncapped high-salt dimer": 0.21, "1G capped low-salt monomer": 0.23, "2G capped low-salt monomer": 0.21}
{"position": "A385", "3G uncapped high-salt dimer": 0.53, "1G capped low-salt monomer": 0.54, "2G capped low-salt monomer": 0.52}
{"position": "C393", "3G uncapped high-salt dimer": 0.57, "1G capped low-salt monomer": 0.69, "2G capped low-salt monomer": 0.61}
{"position": "A398", "3G uncapped high-salt dimer": 0.15, "1G capped low-salt monomer": 0.21, "2G capped low-salt monomer": 0.18}
{"position": "A418", "3G uncapped high-salt dimer": 0.58, "1G capped low-salt monomer": 0.63, "2G capped low-salt monomer": 0.62}
{"position": "A419", "3G uncapped high-salt dimer": 0.44, "1G capped low-salt monomer": 0.49, "2G capped low-salt monomer": 0.46}

4 of these entries, quoted again:

{"position": "A419", "3G uncapped high-salt dimer": 0.44, "1G capped low-salt monomer": 0.49, "2G capped low-salt monomer": 0.46}
{"position": "C185", "3G uncapped high-salt dimer": 0.50, "1G capped low-salt monomer": 0.42, "2G capped low-salt monomer": 0.44}
{"position": "A398", "3G uncapped high-salt dimer": 0.15, "1G capped low-salt monomer": 0.21, "2G capped low-salt monomer": 0.18}
{"position": "A194", "3G uncapped high-salt dimer": 1.01, "1G capped low-salt monomer": 1.02, "2G capped low-salt monomer": 1.08}